Results of unrelated studies side by side (data: NIAID ChemDB).

Shared fields: tests on isolated targets; agent: HIV-1; target: Integrase; read-out: IC50

Neighbouring rows are from separate reports.

N#C/C(=C\c1ccccc1)S(=O)(=O)/C(C#N)=C/c1ccc(O)c(O)c1 ; read by: 3′ processing / substrate cleavage ; result: 4.7 µM
CN(C)C(=O)C(=O)N(C)C1CN(S(C)(=O)=O)CCn2c1nc(C(=O)NCc1ccc(F)cc1)c(O)c2=O ; read by: ELISA ; result: <10 µM
O=C1CCN(C(=O)c2cn3ccn(Cc4cccc(Cl)c4)c(=O)c3c(O)c2=O)C1 ; read by: ELISA ; result: 0.01–0.1 µM
N#C/C(=C\c1ccc(O)c(O)c1)C(=O)c1ccc(O)c(O)c1 ; read by: disintegration ; result: 4.2 µM
CSCc1cc(=O)c(O)c2n1CCN(Cc1ccc(Cl)c(Cl)c1)C2=O ; read by: ELISA ; result: 0.01–0.1 µM
O=C(C1=NS(=O)(=O)c2ccc(Cl)cc2S1)c1ccc2ccccc2c1 ; mutations: INTG-C65S ; read by: 3′ processing ; result: 65 µM
O=C(O)/C(O)=C/C(=O)N(Cc1ccc(F)cc1)Cc1csc2ccc(Cl)cc12 ; read by: strand transfer ; result: <70 µM
N#C/C(=C\c1cc(O)c(O)c(O)c1)C(N)=O ; read by: strand transfer ; result: 5–10 µM
O=C(O)/C(O)=C/C(=O)N(CCc1ccc(F)cc1)Cc1ccccc1Cl ; read by: strand transfer ; result: <70 µM
CC(C)n1c(=O)c(O)c2n(c1=O)CCN(Cc1cccc3ccccc13)C2=O ; read by: strand transfer ; result: <10 µM
CC(C)CNC(=O)c1cn2ccn(Cc3cccc(Cl)c3)c(=O)c2c(O)c1=O ; read by: ELISA ; result: 0.01–0.1 µM
O=C1c2c(O)c(=O)n(-c3ccc(N4CCOCC4)nc3)c(=O)n2CCN1Cc1ccc(F)cc1 ; read by: strand transfer ; result: <10 µM
N#C/C(=C\c1cc(O)c(O)c(O)c1)C(=O)NCCCNC(=O)/C(C#N)=C/c1cc(O)c(O)c(O)c1 ; read by: 3′ processing / substrate cleavage ; result: 0.4 µM
CN(C(=O)/C=C(\O)C(=O)O)C(c1ccccc1)c1ccccc1 ; read by: strand transfer ; result: >70 µM
CC(C)n1c(=O)c(O)c2n(c1=O)C[C@@H]1CC[C@H](c3ccccc3)N1C2=O ; read by: strand transfer ; result: <10 µM
Cc1cc2c(cc1Cl)SC(C(=O)c1ccc(Br)cc1)=NS2(=O)=O ; mutations: INTG-C65S ; read by: 3′ processing ; result: 65 µM
O=c1ccn2ccn(Cc3ccc(Cl)cc3)c(=O)c2c1O ; read by: ELISA ; result: 0.01–0.1 µM
CN(C)C(=O)CC1Cn2c(c(O)c(=O)n(C3CCCC3)c2=O)C(=O)N1Cc1ccc(F)cc1 ; read by: strand transfer ; result: <10 µM
CC1(C)c2nc(C(=O)NCc3ccc(F)cc3)c(O)c(=O)n2CCN1Cc1ccccc1 ; read by: ELISA ; result: <10 µM
O=[N+]([O-])c1ccc(CSc2nc3ccccc3s2)cc1 ; read by: strand transfer ; result: >1000 µM
CN(Cc1cccc(C(F)(F)F)c1)C(=O)/C=C(\O)C(=O)O ; read by: strand transfer ; result: <70 µM
Cc1cc(=O)n(-c2ccccc2)n1C(=O)c1ccco1 ; read by: strand transfer ; result: 450 µM
CC(C)(C)C(=O)c1cn2ccn(Cc3ccc(F)cc3)c(=O)c2c(O)c1=O ; read by: ELISA ; result: <0.01 µM
CN(C)C(=O)C(=O)N1CCn2c(nc(C(=O)NCc3ccc(F)cc3)c(O)c2=O)C1 ; read by: ELISA ; result: <10 µM
N#C/C(=C\c1ccc(O)c(O)c1)C(=O)NCCN1CCN(C(=O)/C(C#N)=C/c2ccc(O)c(O)c2)CC1 ; read by: strand transfer ; result: 5–10 µM
O=C(CCCCCNC(=O)/C(O)=C/C(=O)N(CCCc1ccccc1Cl)Cc1ccc(F)cc1)NS(=O)(=O)c1ccccc1 ; read by: strand transfer ; result: <70 µM
O=C1c2c(O)c(=O)n(C3CCCCC3N3CCOCC3)c(=O)n2CCN1Cc1ccc(F)cc1 ; read by: strand transfer ; result: <10 µM
Cc1cc2c(cc1Cl)SC(C(=O)c1ccc(Cl)c(Cl)c1)=NS2(=O)=O ; mutations: INTG-C65S ; read by: 3′ processing ; result: 20 µM
N#Cc1ccccc1-c1ccc(CSc2nc3ccccc3s2)cc1 ; read by: strand transfer ; result: >1000 µM
CCOC(=O)/C=C/c1ccc2c(c1)c(=O)c(/C(O)=C/C(=O)C(=O)OCC)cn2Cc1ccc(F)cc1 ; read by: strand transfer ; result: >300 µM
CN(Cc1cccc(OCc2ccc(F)cc2)c1)C(=O)/C=C(\O)C(=O)O ; read by: strand transfer ; result: <70 µM
O=C(C1=NS(=O)(=O)c2ccc(Cl)cc2S1)c1ccc(Cl)c(Cl)c1 ; read by: strand transfer ; result: 19 µM
O=C1c2c(O)c(=O)n(CCc3cccs3)c(=O)n2CCN1Cc1ccc(F)cc1 ; read by: strand transfer ; result: <10 µM
COc1ccc(C(=O)C2=NS(=O)(=O)c3cc(C)c(Cl)cc3S2)cc1 ; mutations: INTG-C65S ; read by: 3′ processing ; result: >100 µM
CCC(C)(C)C(=O)c1cn2ccn(Cc3ccc(F)cc3)c(=O)c2c(O)c1=O ; read by: ELISA ; result: 0.01–0.1 µM
Cc1cc(=O)n(-c2cccc([N+](=O)[O-])c2)n1C(=O)c1ccco1 ; read by: 3′ processing ; result: >1000 µM
CC(C)NC(=S)N(C)CCC1CN(Cc2ccc(F)cc2)C(=O)c2c(O)c(=O)n(C(C)C)c(=O)n21 ; read by: strand transfer ; result: <10 µM
N#C/C(=C\c1ccc(O)c(O)c1)C(=S)NCc1ccccc1 ; read by: 3′ processing / substrate cleavage ; result: 10–100 µM
O=C1c2c(O)c(=O)n(CC(F)(F)F)c(=O)n2CCN1Cc1ccc(F)cc1 ; read by: strand transfer ; result: <10 µM
N#C/C(=C\c1ccc(O)c(O)c1)C(=O)NCc1ccccc1 ; read by: strand transfer ; result: 10–100 µM
O=c1ncn2ccn(Cc3ccc(Cl)c(Cl)c3)c(=O)c2c1O ; read by: ELISA ; result: 0.01–0.1 µM
COc1ccc(NC(=O)/C(C#N)=C/c2ccc(O)c(O)c2)cc1O ; read by: 3′ processing / substrate cleavage ; result: 10–100 µM
O=C1c2c(O)c(=O)ccn2CC(Cc2ccccc2)N1Cc1ccc(Cl)c(Cl)c1 ; read by: ELISA ; result: 0.01–0.1 µM
CCSCCn1c(=O)c(O)c2n(c1=O)CCN(Cc1ccc(F)cc1)C2=O ; read by: strand transfer ; result: <10 µM

Repeating the final 4 entries:

| SMILES | mutations | read by | result |
|---|---|---|---|
| O=c1ncn2ccn(Cc3ccc(Cl)c(Cl)c3)c(=O)c2c1O | - | ELISA | 0.01–0.1 µM |
| COc1ccc(NC(=O)/C(C#N)=C/c2ccc(O)c(O)c2)cc1O | - | 3′ processing / substrate cleavage | 10–100 µM |
| O=C1c2c(O)c(=O)ccn2CC(Cc2ccccc2)N1Cc1ccc(Cl)c(Cl)c1 | - | ELISA | 0.01–0.1 µM |
| CCSCCn1c(=O)c(O)c2n(c1=O)CCN(Cc1ccc(F)cc1)C2=O | - | strand transfer | <10 µM |

ICn: concentration for n% inhibition. a–b is a range or a potency band. Blank or dashed fields: not listed here.